Source: article PMC4992889, “The viral capping enzyme nsP1: a novel target for the inhibition of chikungunya virus infection” (Scientific Reports, 2016)

Test system: WT CHIKV LS3
Type: cell-based
Settings: concentrations above 63 μM; 28 h p.i.

Q: Which “expression of CHIKV proteins (nsP1, E2E3), WT virus” value does the source give for `CC(=O)c1cccc(-n2nnc3c(=O)[nH]c(C)nc32)c1` [MADTP-314, 3-(3′-acetylphenyl)-5-methyl-3H-[1,2,3]triazolo[4,5-d]pyrimidin-7(6H)-one] here?
A: hardly detectable expression of CHIKV proteins
